Pooled drug test results. Numbers come from NIAID ChemDB, via PubChem.

Common to all: host cell toxicity; cell line: HeLa; endpoint: CC50

CCn is the concentration with n% toxicity to the cells. a–b is a range or a potency band. Conditions beyond the fields shown may differ between rows.

smiles | result
CCOc1ncn(-c2ccc(NC(=S)Nc3ncccn3)cc2)n1 | 40 µg/mL
CCN(CC)c1noc(-c2ccc(O)cc2O)c1Cc1c(N(CC)CC)noc1-c1ccc(OC)cc1O | 3.5 µM
CC(C)CS[C@@H]1C[C@H](n2cnc3c(N)ncnc32)[C@@H](O)[C@H]1O | 80–400 µg/mL
CC[n+]1c(-c2ccccc2)c2cc(NC(N)=O)ccc2c2ccc(NC(N)=O)cc21 | >10 µM
CCOc1ccc(-c2cc(N3CCCCC3)no2)c(O)c1 | >347 µM
CCOc1ncn(-c2ccc(NC(=S)Nc3cccc(O)c3)cc2)n1 | 40 µg/mL
O=c1cc(NCCc2ccccc2)c2cccnc2n1O | <100 µM
CCCOc1ncn(-c2ccc(NC(=S)NC3O[C@H](CO)[C@@H](O)[C@H](O)[C@H]3O)cc2)n1 | ≥200 µg/mL
CCN(CC)c1cc(-c2ccc(OC)cc2OC)on1 | >362 µM
CC1(C)[C@@H](CO)CC[C@@]1(C)Cn1cnc2c(N)ncnc21 | >400 µg/mL
CCOC(=O)c1c(O)c2cc(-c3cccc(-c4ccccc4)c3)cnc2n(O)c1=O | <100 µM
Nc1cc(OC[C@H]2CC[C@@H](COCc3ccccc3)O2)nc(N)n1 | >250 µM
CC1CCN(Cc2cccc(CNc3cc(=O)n(O)c4ncccc34)c2)CC1 | <100 µM
Nc1cc(OC[C@@H]2O[C@H](CO)[C@@H](O)[C@H]2O)nc(N)n1 | >250 µM
CCCOc1ncn(-c2ccc(NC(=S)Nc3cnccn3)cc2)n1 | 100 µg/mL
CCS(=O)(=O)c1ccc(NCc2ccc(Cl)c(Cl)c2)nc1C#N | >10 µg/mL
Cc1ccc(C(=O)CCCCOc2ccc(C3=N[C@H](C)CO3)cc2)s1 | 13 µM
CC1=CC(=O)C=C(C/C=C(\C)CC/C=C(\C)CC/C=C(\C)CC[C@@H](C)C(C)(C)O)C1=O | 29 µM
CCOC(=O)/C=C/[C@H](CCC(N)=O)NC(=O)[C@H](Cc1ccccc1)NC(=O)[C@H](CC(C)C)NC(=O)SCC | >100 µM
c1ccc(COC[C@H]2CC[C@@H](COc3cc(OC[C@H]4CC[C@@H](COCc5ccccc5)O4)ncn3)O2)cc1 | 175 µM
CSCCCN1C(=O)c2ccccc2C(CC(=O)c2ccccc2)C1=O | 155 µM
CCOC(=O)/C=C/[C@H](C[C@@H]1CCNC1=O)NC(=O)[C@@H](CC(=O)[C@@H](NC(=O)c1cc(C)on1)C(C)C)Cc1ccc(F)cc1 | >1000 µM
CCOC(=O)/C=C/[C@H](CCC(N)=O)NC(=O)[C@H](Cc1ccccc1)NC(=O)[C@H](CC(C)C)NC(=O)SCc1ccccc1 | >320 µM
NC(=O)CSc1ncnc2c1cnn2CCCCO | >400 µg/mL
C=CCSc1n[nH]c(-c2ccc(C(F)(F)F)cc2)n1 | 48.4 µg/mL
CC(Sc1ncnc2c1cnn2COCC(O)CO)C(N)=O | >400 µg/mL
Cc1ccc(C(=O)CCCCCCOc2ccc(C3=N[C@H](C)CO3)cc2)s1 | 16 µM
CS(=O)(=O)c1ccc(Cc2ccc(N)cc2)nc1 | >10 µg/mL
CCSC1NN=C(Cc2nc(C)n(C)n2)N1c1ccccc1 | 400 µg/mL
CS(=O)(=O)CCCN1C(=O)c2ccccc2C(CC(=O)c2ccccc2)C1=O | 183 µM
CS(=O)(=O)c1ccc(NCc2ccc(Cl)cc2)nc1 | >10 µg/mL
COc1cc(OC[C@H]2CC[C@@H](CO)O2)nc(N)n1 | >250 µM
Cc1ccc(C(=O)CCCCOc2ccc(C3=NCCO3)cc2)s1 | 146 µM
CCSc1n[nH]c(-c2ccc([N+](=O)[O-])c(C)c2)n1 | 6.5 µg/mL
CC[n+]1c(-c2ccccc2)c2cc(N)ccc2c2ccc(NC(N)=O)cc21 | >10 µM
CCCOc1ncn(-c2ccc(NC(=S)Nc3cccc(O)c3)cc2)n1 | 100 µg/mL
CCC(Sc1ncnc2c1cnn2CCCCO)C(N)=O | >400 µg/mL
COc1ccc(-c2cc(=O)c3c(O)cc(OC)cc3o2)cc1 | 106 µg/mL
Cc1ccc(C(=O)CCCCCCOc2ccc(C3=NCC(C)O3)cc2)s1 | >260 µM
C=CCSc1n[nH]c(-c2ccc([N+](=O)[O-])c(C)c2)n1 | 26.91 µg/mL
Nc1nc(Cl)cc(OC[C@@H]2O[C@H](COCc3ccccc3)[C@@H](OCc3ccccc3)[C@H]2OCc2ccccc2)n1 | 104 µM
CCOC(=O)c1c(-c2ccc(CCc3ccc(N)cc3)cc2)c2cccnc2n(O)c1=O | <100 µM
CC1(C)[C@@H](CO)CC[C@@]1(C)Cn1nnc2c(=O)[nH]cnc21 | >400 µg/mL
CCOC(=O)/C=C/[C@H](CCC(N)=O)NC(=O)[C@H](Cc1ccccc1)NC(=O)[C@H](CC(C)C)NC(=O)OC(C)(C)C | >320 µM
NNC(=O)Cc1nc2n(n1)CCCCC2 | >400 µg/mL
COc1ccccc1NC(=O)c1c(O)c2cccnc2n(O)c1=O | <100 µM
Cc1cc(CCCCCCCOc2ccc(C3=NCCO3)cc2)on1 | 37 µM
CCn1nc(Cc2n[nH]c(=S)o2)nc1C | >400 µg/mL
CC1(C)[C@@H](CO)CC[C@@]1(C)Cn1nnc2c(Cl)ncnc21 | >400 µg/mL
COc1cc(O)c2c(=O)cc(-c3ccc(OC)c(OC)c3)oc2c1 | 168 µg/mL
Nc1nccc(OC[C@@H]2O[C@H](CO)[C@@H](O)[C@H]2O)n1 | >250 µM
CCCCSc1n[nH]c(-c2ccco2)n1 | 56.6 µg/mL
CC(=O)Nc1cccc(-c2cc(=O)n(O)c3ncccc23)c1 | <100 µM
CCCCN1C(=O)c2ccccc2C(C(C)=O)C1=O | 125 µM
CCC1COC(c2ccc(OCCCCC(=O)c3ccc(C)s3)cc2)=N1 | 24 µM
CCSc1n[nH]c(-c2ccc(Cl)cc2C)n1 | 12.57 µg/mL
CCOC(=O)/C=C/[C@H](CCC(N)=O)NC(=O)[C@H](Cc1ccccc1)NC(=O)[C@H](CC(C)C)NC(=O)OC | >100 µM
CC(=O)Nc1ccc(Cc2ccc(S(C)(=O)=O)cn2)cc1 | >10 µg/mL
CCSc1n[nH]c(-c2cccc([N+](=O)[O-])c2C)n1 | 7.4 µg/mL
Nc1ccnc(OC[C@H]2CC[C@@H](CO)O2)n1 | 230 µM
CCN(CC)c1cc(-c2ccc(OC)cc2O)on1 | >381 µM
Cc1ccc(C(=O)CCCCOc2ccc(C3=NC(C)CO3)cc2)s1 | 13 µM